{"sequences": {"note": "Amino acid sequences for entries named in this document (tags omitted). Residues count along the entry.", "UniProt P19711, 3270-3988 limits assumed": "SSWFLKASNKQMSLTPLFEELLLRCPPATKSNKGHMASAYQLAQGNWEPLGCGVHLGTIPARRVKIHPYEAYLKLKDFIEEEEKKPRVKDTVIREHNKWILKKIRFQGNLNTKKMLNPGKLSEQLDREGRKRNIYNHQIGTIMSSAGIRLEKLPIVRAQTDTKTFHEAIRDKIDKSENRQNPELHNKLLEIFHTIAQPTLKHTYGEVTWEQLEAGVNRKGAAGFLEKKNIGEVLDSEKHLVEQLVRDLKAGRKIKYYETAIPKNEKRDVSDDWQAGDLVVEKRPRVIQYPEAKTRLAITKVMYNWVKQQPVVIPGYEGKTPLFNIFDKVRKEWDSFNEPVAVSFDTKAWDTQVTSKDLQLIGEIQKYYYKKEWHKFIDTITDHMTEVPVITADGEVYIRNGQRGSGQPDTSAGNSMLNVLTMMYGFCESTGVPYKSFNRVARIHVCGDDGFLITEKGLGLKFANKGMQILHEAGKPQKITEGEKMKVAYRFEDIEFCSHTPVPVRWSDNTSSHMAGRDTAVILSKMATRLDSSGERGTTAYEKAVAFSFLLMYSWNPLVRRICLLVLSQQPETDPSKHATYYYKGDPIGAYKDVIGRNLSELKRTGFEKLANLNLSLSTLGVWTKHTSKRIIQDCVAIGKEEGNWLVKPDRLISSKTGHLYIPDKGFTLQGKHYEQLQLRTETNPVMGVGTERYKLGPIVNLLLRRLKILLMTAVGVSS", "UniProt P27958, 2421-3011 limits assumed": "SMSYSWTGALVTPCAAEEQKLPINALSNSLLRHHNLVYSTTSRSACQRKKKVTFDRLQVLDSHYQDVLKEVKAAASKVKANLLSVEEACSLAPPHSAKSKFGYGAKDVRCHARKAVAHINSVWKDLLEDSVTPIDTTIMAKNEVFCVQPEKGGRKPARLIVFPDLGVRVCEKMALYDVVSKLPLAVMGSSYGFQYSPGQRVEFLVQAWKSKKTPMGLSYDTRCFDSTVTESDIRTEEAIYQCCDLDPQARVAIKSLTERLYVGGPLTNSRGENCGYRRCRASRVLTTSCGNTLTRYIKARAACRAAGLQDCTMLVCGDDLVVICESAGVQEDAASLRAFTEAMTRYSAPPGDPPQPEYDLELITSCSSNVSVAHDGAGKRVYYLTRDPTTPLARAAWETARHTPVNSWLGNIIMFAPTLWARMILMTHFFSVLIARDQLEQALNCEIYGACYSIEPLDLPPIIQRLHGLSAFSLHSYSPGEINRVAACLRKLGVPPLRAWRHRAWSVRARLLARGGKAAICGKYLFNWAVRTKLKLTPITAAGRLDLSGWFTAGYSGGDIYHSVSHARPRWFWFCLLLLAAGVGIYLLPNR"}, "source": "patent US6809101B2", "about": "“Compounds having anti-hepatitis C virus effect” (priority 2000, dated 2004)", "key": {"[1]": {"biological_target": "RNA-dependent RNA polymerase (RdRp) of bovine virus diarrhea virus (BVDV) (Bovine viral diarrhea virus, UniProt P19711)", "test": "Inhibitory activity against BVDV RNA-dependent RNA polymerase (Experiment Example 2)", "settings": "Experimental example 2; same way as experiment example 1", "description": "Inhibitory Activity Against BVDV RNA-Dependent RNA Polymerase\nInhibitory activity against RNA-dependent RNA polymerase (RdRp) of bovine virus diarrhea virus (BVDV) was experimented too in the same way in experiment example 1."}, "[2]": {"biological_target": "HCV RNA-dependent RNA polymerase (UniProt P27958)", "test": "Inhibitory activity against HCV RNA-dependent RNA polymerase (Experiment Example 1)", "settings": "Experimental example 1; poly(A) template, oligo(U)12 primer, 3H-UTP substrate, enzyme reaction 25° C. for 30 min", "description": "Inhibitory Activity Against HCV RNA-Dependent RNA Polymerase\n(1) Preparation of Hepatitis C Virus (HCV) RNA-Dependent RNA Polymerase\nIt was collected several cDNA clones of HCV RNA-dependent RNA polymerase from plasma of people infected with HCV, RNA-dependent RNA polymerase was expressed by using insect cell or E. coli from these clones. RNA-dependent RNA polymerase in cell extract was purified by anion-exchange chromatography, heparin-affinity chromatography, poly U-affinity chromatography, cation-exchange chromatography, gel filtration chromatography, and the like. The preparation was done at about 4° C. under low temperature condition, as solution dissolving enzyme was used Tris buffer (pH 7.5) containing ethylenediamine tetraacetic acid (1 mM), dithiothreitol (10 mM), and glycerol (20%). The purified enzyme was kept at 4° C. or −20° C. until it was used for assay.\n(2) Method of HCV RNA-Dependent RNA Polymerase Assay […]\n(8) Radioactivity was measured by using scintillation counter.\n(9) The percentage of inhibition was calculated by replacing the measured value of radioactivity (unit; ccpm) into the following expression.\nThe percentage of inhibition=100−(the measured value in presence of test compound−the measured value in absence of enzyme)÷(the measured value in absence of test compound−the measured value in absence of enzyme)×100. […]"}}, "note": "The structures given here were assigned with low confidence; some may be wrong."}
{"smiles": "Cc1cnoc1C(O)=C1SC(=S)NC1=O", "note": "[Compound I-27, 5-[1-Hydroxy-1-(4-methylisoxazol-5-yl)]methylene-2-thioxothiazolidin-4-one]", "values": [{"measurement": "IC50 for BVDV RdRp", "setting": "[1]", "value": 24, "unit": "µg/mL"}, {"measurement": "IC50 for HCV RdRp", "setting": "[2]", "value": 7.1, "unit": "µg/mL"}]}
